# “And” between values parts separate entries of the source, which are not always exact repeats. Identical values can stand only once.
# Experiments:
# L929 cells = assay: Cytotoxicity assay (Alamar Blue, 24 h) on L929 fibroblasts; format: cell-based, murine; settings: for SI^A L929: CC50 L929/IC50 ex vivo amastigotes; for SI^P L929: CC50 L929/IC50 promastigotes
# Description: (§1) HepG2 cells (human hepatocellular carcinoma), VERO cells (African green monkey kidney), and J774.G8 macrophages (murine reticulosarcoma) were maintained in DMEM medium, supplemented with 10% FBS, 1% Pen/Str at 37 °C and 5% CO2 [70, 71]. For the cultivation of L929 fibroblasts (murine fibrosarcoma), RPMI 1640 medium without phenol red, supplemented with 2 mM L-glutamine, 10% FBS, and 1% Pen/Str, was used and maintained under the same conditions of temperature and CO2 as above.
# (§2) J774.G8, VERO (10^5 cells/well), HepG2, L929 (0.5 × 10^5 cells/well) cells, and MPMs (3 × 10^5 cells/well) were centrifuged, resuspended in medium, plated in 96-well microplates, and incubated for 24 h under cultivation conditions. Subsequently, they were exposed to different concentrations of the compounds, serially diluted in medium to a final volume of 100 µL/well, and incubated for 24 h at 37 °C and 5% CO2. Cell viability was then assessed using the AB, and data were acquired by spectrophotometry. […] Untreated cells were used as negative controls, and cells exposed to the reference compound (MT) were used as positive controls. The Selectivity Index (SI) was calculated using the ratio SI = CC50 (mammalian cells)/IC50 (promastigote or amastigote forms of L. amazonensis).
# [1] = system: murine peritoneal macrophages—MPMs; assay: Cytotoxicity assay (Alamar Blue, 24 h) on murine peritoneal macrophages; format: cell-based, Swiss Webster mice; settings: for SI^A MPMs: CC50 MPMs/IC50 ex vivo amastigotes; for SI^P MPMs: CC50 MPMs/IC50 promastigotes
# Description: Murine peritoneal macrophages—MPMs (primary cells)—were isolated from male Swiss Webster mice stimulated with 1 mL of 3% Brewer’s thioglycollate medium, administered intraperitoneally. After 96 h, the animals were euthanized, and the MPMs were collected by peritoneal lavage with approximately 10 mL of RPMI 1640 medium. The cell suspension was centrifuged at 382× g for 10 min, and the pellet was resuspended in medium supplemented with 5% FBS, 1% Pen/Str, and 2 mM L-glutamine. All cell cultures were maintained at 37 °C and 5% CO2 [73]. For the experiments, all cell types were cultured until confluency.
# as §2
# J774.G8 cells = assay: Cytotoxicity assay (Alamar Blue, 24 h) on J774.G8 macrophages; format: cell-based, murine; settings: for SI^A J744.G8: CC50 J774.G8/IC50 ex vivo amastigotes; for SI^P J744.G8: CC50 J774.G8/IC50 promastigotes
# Description: as §1, §2
# VERO cells = assay: Cytotoxicity assay (Alamar Blue, 24 h) on VERO cells; format: cell-based, African green monkey; settings: for SI^A VERO: CC50 VERO/IC50 ex vivo amastigotes; for SI^P VERO: CC50 VERO/IC50 promastigotes
# Description: as §1, §2
# HepG2 cells = assay: Cytotoxicity assay (Alamar Blue, 24 h) on HepG2 cells; format: cell-based, human; settings: for SI^A HepG2: CC50 HepG2/IC50 ex vivo amastigotes; for SI^P HepG2: CC50 HepG2/IC50 promastigotes
# Description: as §1, §2
SMILES,SI^A L929 (L929 cells),SI^P L929 (L929 cells),SI^A MPMs [1],SI^P MPMs [1],SI^A J744.G8 (J774.G8 cells),SI^P J744.G8 (J774.G8 cells),SI^A VERO (VERO cells),SI^P VERO (VERO cells),SI^A HepG2 (HepG2 cells),SI^P HepG2 (HepG2 cells)
"CN(C)c1ccc2nc3ccc(=[N+](C)C)cc-3sc2c1 [MB, methylene blue, reference compound]",20.55,5.24,2.30,0.59,13.18,3.36,9.01,2.30,6.13,1.56
"CCCCCCCCCCCCCCCCOP(=O)([O-])OCC[N+](C)(C)C [Miltefosine, miltefosine, reference compound]",116.20,4.86,106.11,4.44,160.41,6.71,173.25,7.24,186.60,7.80
"CCNc1cc2[s+]c3cc(NCC)c(C)cc3nc2cc1C [NMB, new methylene blue]",105.35,51.71,11.76,5.77,25.75,12.64,16.82,8.25,26.90,13.20
"CCNc1cc2[s+]c3cc(NCC)c(C)cc3nc2cc1C.F[P-](F)(F)(F)(F)F.F[P-](F)(F)(F)(F)F.F[P-](F)(F)(F)(F)F.F[P-](F)(F)(F)(F)F.N#[O+].[Ru+2].c1ccc(-c2ccccn2)nc1.c1ccc(-c2ccccn2)nc1 [NMB-B, new methylene blue B]",85.54,49.32,20.86,12.03,–,–,78.47,45.25,10.84,6.25
"CCNc1cc2[s+]c3cc(NCC)c(C)cc3nc2cc1C.F[P-](F)(F)(F)(F)F.F[P-](F)(F)(F)(F)F.F[P-](F)(F)(F)(F)F.F[P-](F)(F)(F)(F)F.N#[O+].[Ru+2].c1cnc2c(c1)ccc1cccnc12.c1cnc2c(c1)ccc1cccnc12 [NMB-P, new methylene blue P]",326.96,52.96,> 150 and 155.72,25.22,–,–,521.30,84.44,76.20,12.34

# — paper PMC12730333 (Biology, 2025)
